Source: publication PMC8175350, “Drug repurposing screens identify chemical entities for the development of COVID-19 interventions” (Nature Communications, 2021)

Columns and labels:
Assay type in all cases: cell-based
SARS-CoV-2 [1] = tested on: SARS-CoV-2
SARS-CoV-2 [2] = tested on: SARS-CoV-2; remark: listed apart in the source
SARS-CoV-2 [3] = tested on: SARS-CoV-2; remark: listed apart in the source
[4] = selectivity index, uninfected Calu-3 CC50 / SARS-CoV-2 EC50
[5] = selectivity index, uninfected HeLa-ACE2 CC50 / SARS-CoV-2 EC50
[6] = selectivity index, uninfected Calu-3 CC50 / Calu-3 SARS-CoV-2 EC50
[7] = selectivity index, uninfected HeLa-ACE2 CC50 / HeLa-ACE2 SARS-CoV-2 EC50
[8] = selectivity index, uninfected Calu-3 CC50 vs Calu-3 SARS-CoV-2 EC50
[9] = selectivity index, uninfected HeLa-ACE2 CC50 vs HeLa-ACE2 SARS-CoV-2 EC50

Structure (SMILES): Nc1ncnc2c1nc(Cl)n2[C@@H]1O[C@H](CO)[C@@H](O)[C@H]1O [8-Chloroadenosine]
- Calu-3 SI (SARS-CoV-2 [1]; [4]): > 5.62
- HeLa-ACE2 SI (SARS-CoV-2 [2]; [5]): > 12.80
- TOA:HeLa-ACE2 EC50 Ratio (SARS-CoV-2 [3]; TOA EC50 / HeLa-ACE2 EC50): 1.151

Structure (SMILES): C=CC(=O)Nc1cc(Nc2nccc(-c3cn(C)c4ccccc34)n2)c(OC)cc1N(C)CCN(C)C [AZD-9291/Osimertinib]
- Calu-3 SI (SARS-CoV-2 [1]; [4]): < 1.07
- HeLa-ACE2 SI (SARS-CoV-2 [2]; [5]): > 18.79
- TOA:HeLa-ACE2 EC50 Ratio (SARS-CoV-2 [3]; TOA EC50 / HeLa-ACE2 EC50): 8.157

Structure (SMILES): COc1ccc2c(c1)[C@]1(C[C@H]1c1ccc3c(/C=C/c4ccc(CN5C[C@@H](C)O[C@@H](C)C5)cc4)n[nH]c3c1)C(=O)N2 [CFI-400945]
- Calu-3 SI (SARS-CoV-2 [1]; [4]): > 5.88
- HeLa-ACE2 SI (SARS-CoV-2 [2]; [5]): < 1.02
- TOA:HeLa-ACE2 EC50 Ratio (SARS-CoV-2 [3]; TOA EC50 / HeLa-ACE2 EC50): 0.653

Structure (SMILES): CO[C@H]1C[C@H](O[C@H]2CC[C@]3(C=O)[C@H]4CC[C@]5(C)[C@@H](C6=CC(=O)OC6)CC[C@]5(O)[C@@H]4CC[C@]3(O)C2)O[C@H](C)[C@H]1O [Cymarine]
- Calu-3 SI (SARS-CoV-2 [1]; ratio CC50 / EC50): > 43.54
- HeLa-ACE2 SI (SARS-CoV-2 [2]): 1.21

Structure (SMILES): C[C@H]1O[C@@H](O[C@H]2[C@@H](O)C[C@H](O[C@H]3[C@@H](O)C[C@H](O[C@H]4CC[C@@]5(C)[C@H](CC[C@@H]6[C@@H]5C[C@@H](O)[C@]5(C)[C@@H](C7=CC(=O)OC7)CC[C@]65O)C4)O[C@@H]3C)O[C@@H]2C)C[C@H](O)[C@@H]1O [Digoxin]
- Calu-3 SI (SARS-CoV-2 [1]; ratio CC50 / EC50): > 29.80
- HeLa-ACE2 SI (SARS-CoV-2 [2]): 0.72
- TOA:HeLa-ACE2 EC50 Ratio (SARS-CoV-2 [3]; TOA EC50 / HeLa-ACE2 EC50): 4.769

Structure (SMILES): CNC(=O)n1ccc2cc(Oc3ccnc(NC(=O)c4ccc(C5CCN(CCO)CC5)cc4)c3)c(OCCOC)cc21 [E-7090]
- Calu-3 SI (SARS-CoV-2 [1]; [6]): 19.87
- HeLa-ACE2 SI (SARS-CoV-2 [2]; [7]): 8.01

Structure (SMILES): CC[C@H]1CN2CCc3cc(OC)c(OC)cc3[C@@H]2C[C@@H]1C[C@H]1NCCc2cc(OC)c(OC)cc21 [Emetine]
- Calu-3 SI (SARS-CoV-2 [1]; ratio CC50 / EC50): > 19.97
- HeLa-ACE2 SI (SARS-CoV-2 [2]): 5.66

Structure (SMILES): N#Cc1cccc(C(C(=O)NCC(c2ccccc2)c2ccccc2)N(CCc2c[nH]cn2)C(=O)c2ccccc2C(=O)c2ccccc2)c1 (stereo not drawn) [GENZ-29155]
- Calu-3 SI (SARS-CoV-2 [1]; [8]): > 6.41
- HeLa-ACE2 SI (SARS-CoV-2 [2]; [9]): 4.01

Structure (SMILES): CCCCCCCC/C=C/CCCCCCCC(=O)OC[C@H]1O[C@@H](n2ccc(N)nc2=O)C(F)(F)[C@@H]1O [Gemcitabine elaidate]
- Calu-3 SI (SARS-CoV-2 [1]; [6]): > 92.27
- HeLa-ACE2 SI (SARS-CoV-2 [2]; [7]): 0.000607

Structure (SMILES): CC(=O)O[C@H]1C[C@H](O[C@H]2[C@@H](O)C[C@H](O[C@H]3[C@@H](O)C[C@H](O[C@H]4CC[C@@]5(C)[C@H](CC[C@@H]6[C@@H]5C[C@@H](O)[C@]5(C)[C@@H](C7=CC(=O)OC7)CC[C@]65O)C4)O[C@@H]3C)O[C@@H]2C)O[C@H](C)[C@H]1O[C@@H]1O[C@H](CO)[C@@H](O)[C@H](O)[C@H]1O [Lanatoside C]
- Calu-3 SI (SARS-CoV-2 [1]; ratio CC50 / EC50): > 31.97
- HeLa-ACE2 SI (SARS-CoV-2 [2]): 6.56

Structure (SMILES): C[C@]12O[C@H](C[C@]1(O)CO)n1c3ccccc3c3c4c(c5c6ccccc6n2c5c31)CNC4=O [Lestaurtinib]
- Calu-3 SI (SARS-CoV-2 [1]; ratio CC50 / EC50): > 29.86
- HeLa-ACE2 SI (SARS-CoV-2 [2]): 1.39

Structure (SMILES): NC1(c2ccc(-c3nc4ccn5c(=O)[nH]nc5c4cc3-c3ccccc3)cc2)CCC1 [MK-2206]
- Calu-3 SI (SARS-CoV-2 [1]; [4]): < 1.78
- HeLa-ACE2 SI (SARS-CoV-2 [2]; [5]): > 20.63
- TOA:HeLa-ACE2 EC50 Ratio (SARS-CoV-2 [3]): 8.511

Structure (SMILES): O[C@@H]1CO[C@H]2[C@@H]1OC[C@H]2Oc1nc2nc(-c3ccc(-c4ccccc4)cc3)c(Cl)cc2[nH]1 [MK-8722]
- Calu-3 SI (SARS-CoV-2 [1]; [8]): > 10.93
- HeLa-ACE2 SI (SARS-CoV-2 [2]; [9]): 3.90

Structure (SMILES): COC(=O)C1=C(C)NC(C)=C(C(=O)OCCN2CCN(C(c3ccccc3)c3ccccc3)CC2)C1c1cccc([N+](=O)[O-])c1 (stereo not drawn) [Manidipine (Manyper)]
- Calu-3 SI (SARS-CoV-2 [1]; [4]): > 5.45
- HeLa-ACE2 SI (SARS-CoV-2 [2]; [5]): > 2.48
- TOA:HeLa-ACE2 EC50 Ratio (SARS-CoV-2 [3]; TOA EC50 / HeLa-ACE2 EC50): 1.120

Structure (SMILES): O=c1nc(NO)ccn1[C@@H]1O[C@H](CO)[C@@H](O)[C@H]1O [N-hydroxycytidine]
- Calu-3 SI (SARS-CoV-2 [1]; [4]): 37.50
- HeLa-ACE2 SI (SARS-CoV-2 [2]; [5]): > 18.13
- TOA:HeLa-ACE2 EC50 Ratio (SARS-CoV-2 [3]; TOA EC50 / HeLa-ACE2 EC50): 1.961

Structure (SMILES): Cc1c(O)cccc1C(=O)N[C@@H](CSc1ccccc1)[C@H](O)CN1C[C@H]2CCCC[C@H]2C[C@H]1C(=O)NC(C)(C)C [Nelfinavir mesylate]
- Calu-3 SI (SARS-CoV-2 [1]; [4]): > 26.07
- HeLa-ACE2 SI (SARS-CoV-2 [2]; [5]): > 2.08
- TOA:HeLa-ACE2 EC50 Ratio (SARS-CoV-2 [3]): 0.965

Structure (SMILES): NS(=O)(=O)c1ccc(N2N=C(C(F)(F)F)CC2c2c[nH]c3c(Cl)cccc23)cc1 (stereo not drawn) [ON-09310]
- Calu-3 SI (SARS-CoV-2 [1]; [6]): 9.34
- HeLa-ACE2 SI (SARS-CoV-2 [2]; [7]): 2.20

Structure (SMILES): CCCCCCCCCCCCCC(=O)O[C@@H]1[C@@H](C)[C@@]2(O)[C@@H](C=C(CO)C[C@]3(O)C(=O)C(C)=C[C@@H]23)[C@@H]2C(C)(C)[C@]12OC(C)=O [Phorbol 12-myristate 13-acetate]
- Calu-3 SI (SARS-CoV-2 [1]; ratio CC50 / EC50): 1396.04
- HeLa-ACE2 SI (SARS-CoV-2 [2]): > 2.89

Structure (SMILES): COc1ccc(C[C@H](N)C(=O)N[C@H]2[C@@H](O)[C@H](n3cnc4c(N(C)C)ncnc43)O[C@@H]2CO)cc1 [Puromycin - cytotoxicity control]
- Calu-3 SI (SARS-CoV-2 [1]; [4]): 1.44
- HeLa-ACE2 SI (SARS-CoV-2 [2]; [5]): 1.37
- TOA:HeLa-ACE2 EC50 Ratio (SARS-CoV-2 [3]; TOA EC50 / HeLa-ACE2 EC50): 0.659

Structure (SMILES): CC(C)(C)Cn1c(N)nc2ccc(-c3[nH]c(C(C)(C)C)nc3-c3ccc(F)cc3)nc21 [Ralimetinib mesylate/LY2228820, Ralimetinib mesylate]
- Calu-3 SI (SARS-CoV-2 [1]; [4]): 3.60
- HeLa-ACE2 SI (SARS-CoV-2 [2]; [5]): 14.60
- TOA:HeLa-ACE2 EC50 Ratio (SARS-CoV-2 [3]; TOA EC50 / HeLa-ACE2 EC50): 0.420

Structure (SMILES): C=C(C)[C@]12C[C@@H](C)[C@@]34O[C@](Cc5ccccc5)(O[C@@H]1[C@@H]3C=C(COC(=O)Cc1ccc(O)c(OC)c1)C[C@]1(O)C(=O)C(C)=C[C@@H]41)O2 [Resiniferatoxin]
- Calu-3 SI (SARS-CoV-2 [1]; ratio CC50 / EC50): 19.13
- HeLa-ACE2 SI (SARS-CoV-2 [2]): 5.53

Structure (SMILES): Oc1nccc2cc(OC3CCNCC3)ccc12 [SAR-407899]
- Calu-3 SI (SARS-CoV-2 [1]; [8]): > 7.77
- HeLa-ACE2 SI (SARS-CoV-2 [2]; [9]): 4.03

Structure (SMILES): CCN(CC)CCCNc1nccc2c(C)c3[nH]c4ccc(O)cc4c3c(C)c12 [SR-26050]
- Calu-3 SI (SARS-CoV-2 [1]; [6]): 11.60
- HeLa-ACE2 SI (SARS-CoV-2 [2]; [7]): 1.68

Structure (SMILES): CNC(=O)c1cc(Oc2ccc(NC(=O)Nc3ccc(Cl)c(C(F)(F)F)c3)cc2)ccn1 [Sorafenib]
- Calu-3 SI (SARS-CoV-2 [1]; [4]): < 1.02
- HeLa-ACE2 SI (SARS-CoV-2 [2]; [5]): > 1.52
- TOA:HeLa-ACE2 EC50 Ratio (SARS-CoV-2 [3]): 0.619

Structure (SMILES): N=C(N)c1ccc2cc(OC(=O)c3ccc(CNC(=O)CCCC(=O)O)o3)ccc2c1 [TO-195]
- Calu-3 SI (SARS-CoV-2 [1]; [8]): > 45.45
- HeLa-ACE2 SI (SARS-CoV-2 [2]; [9]): 6.20

Structure (SMILES): Cn1c(C#N)ccc1-c1ccc2c(c1)C(C)(C)OC(=S)N2 [Tanaproget]
- Calu-3 SI (SARS-CoV-2 [1]; [6]): > 7.90
- HeLa-ACE2 SI (SARS-CoV-2 [2]; [7]): 0.91

Structure (SMILES): COc1cc2c(Nc3ccc(Cl)c(Cl)c3F)ncnc2cc1OC[C@@H]1C[C@@H]2CN(C)C[C@@H]2C1 [Tesevatinib, XL647, Kadmon Corporation]
- Calu-3 SI (SARS-CoV-2 [1]; [4]): 1.06
- HeLa-ACE2 SI (SARS-CoV-2 [2]; [5]): > 8.46
- TOA:HeLa-ACE2 EC50 Ratio (SARS-CoV-2 [3]): 3.123

Where a name gives a salt, the structure may show the parent alone. Read-outs that look alike come from different tables or passages of the source.
